Data source: PubChem BioAssay AID504761 (Drosophila RNAi Screening Center, 2011)
Test: 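Genome-wide fly cell screen for genes dengue virus requires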 (primary screen). Cell system: D.Mel-2 cells from Drosophila. Reagents: long dsRNA against Drosophila genes. Treatment: infection with dengue virus type 2; dose and infection time not stated. Detection: 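Cells stained for dengue envelope protein and imaged; percent of infected cells per well on duplicate plates, ranked by infection, with stained nuclei counted for cell number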. Scale: infection score: higher = more virus-infected cells; cell count: higher = more cells in the well. Call rule: 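Low infection ranks in the two replicates (chance level up to 0.065) followed by a retest with a 1.5-fold or larger significant decrease, p below 0.05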. Meaning of the calls: active = confirmed: knock-down lowers infection; inactive = not picked or not confirmed.
In all, the deposit lists about 22,000 reagents; below is a random part of those with a known target gene and a result. Over the whole deposit, 116 (0.52%) were called active. 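Calls depend on retest data that are not deposited; infection was ranked per plate without normalising between plates; the unit of the infection score is not given.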 Raw values are not corrected between plates. The numbers tell different reagents against one gene apart. Names joined by + are all predicted targets of the reagent. The record does not give: the amount of reagent, the time to read-out.

| gene | dsRNA no. | infection score, replicate 1 | infection score, replicate 2 | cell count, replicate 1 | cell count, replicate 2 | call |
| --- | --- | --- | --- | --- | --- | --- |
| Cpr49Ac (GeneID 36348) | 1 | 8.49 | 9.41 | 6043 | 6217 | inactive |
| Hsp70Bb + Hsp70Ba + Hsp70Bbb | 1 | 42.6 | 25.5 | 5907 | 5603 | inactive |
| Nfs1 (GeneID 34613) | 1 | 21.3 | 16.9 | 5994 | 6328 | inactive |
| Nup133 (GeneID 42680) | 1 | 17.7 | 21 | 3746 | 4012 | inactive |
| Alp5 (GeneID 42482) | 1 | 5.64 | 8.97 | 6118 | 6590 | inactive |
| Alp5 (GeneID 42482) | 2 | 22.4 | 7.83 | 5984 | 1519 | inactive |
| MsR2 + CG13802 (retired record) | 1 | 1.81 | 2.37 | 6397 | 6466 | inactive |
| MsR2 + CG13802 (retired record) | 2 | 3.13 | 0.96 | 6235 | 6456 | inactive |
| MsR2 + CG13802 (retired record) | 3 | 4.13 | 6.75 | 5878 | 6567 | inactive |
| MsR2 + CG13802 (retired record) | 4 | 1.96 | 3.99 | 6634 | 6334 | inactive |
| CG15450 (GeneID 33064) | 1 | 14.1 | 16.3 | 6026 | 5937 | inactive |
| Egm (GeneID 36242) | 1 | 17.3 | 7.93 | 5516 | 6548 | inactive |
| Egm (GeneID 36242) | 2 | 5.93 | 1.77 | 5883 | 6553 | inactive |
| Ssrp (GeneID 37767) | 1 | 9.91 | 24.7 | 4359 | 4124 | inactive |
| Ssrp (GeneID 37767) | 2 | 17.5 | 24.8 | 5858 | 5820 | inactive |
| Est-P (GeneID 39393) | 1 | 1.3 | 1.4 | 6629 | 6225 | inactive |
| AlaRS (GeneID 34156) | 1 | 2.59 | 5.08 | 6171 | 5712 | inactive |
| Ns1 (GeneID 42060) | 1 | 3.46 | 6.68 | 5640 | 5240 | inactive |
| CG4194 (GeneID 31173) | 1 | 6.11 | 1.76 | 6158 | 6180 | inactive |
| Cht5 (GeneID 41687) | 1 | 5.86 | 5.78 | 6516 | 7261 | inactive |
| Cht5 (GeneID 41687) | 2 | 9.9 | 1.8 | 6123 | 6175 | inactive |
| Ctu1 (GeneID 35920) | 1 | 3.69 | 15 | 6446 | 6023 | inactive |

Records listed so far whose gene name begins with M or m:
| gene | dsRNA no. | infection score, replicate 1 | infection score, replicate 2 | cell count, replicate 1 | cell count, replicate 2 | call |
| --- | --- | --- | --- | --- | --- | --- |
| MsR2 + CG13802 (retired record) | 1 | 1.81 | 2.37 | 6397 | 6466 | inactive |
| MsR2 + CG13802 (retired record) | 2 | 3.13 | 0.96 | 6235 | 6456 | inactive |
| MsR2 + CG13802 (retired record) | 3 | 4.13 | 6.75 | 5878 | 6567 | inactive |
| MsR2 + CG13802 (retired record) | 4 | 1.96 | 3.99 | 6634 | 6334 | inactive |

Next results follow.
| gene | dsRNA no. | infection score, replicate 1 | infection score, replicate 2 | cell count, replicate 1 | cell count, replicate 2 | call |
| --- | --- | --- | --- | --- | --- | --- |
| CG15375 (GeneID 31356) | 1 | 4.98 | 1.91 | 6102 | 6639 | inactive |
| CG15375 (GeneID 31356) | 2 | 17.5 | 18.9 | 6522 | 5890 | inactive |
| CG1889 + CG43386 | 1 | 3.62 | 1.45 | 6767 | 6622 | inactive |
| CG8541 (GeneID 38838) | 1 | 3.16 | 0.36 | 5941 | 6408 | inactive |
| CG8541 (GeneID 38838) | 2 | 9.67 | 14.5 | 5779 | 5471 | inactive |
| Brms1 (GeneID 32243) | 1 | – | 9.59 | 438 | 4858 | inactive |
| CG14270 (GeneID 31319) | 1 | 4.01 | 0.88 | 6334 | 6162 | inactive |
| tej (GeneID 36590) | 1 | 9.68 | 5.22 | 6898 | 6297 | inactive |
| tej (GeneID 36590) | 2 | 26.4 | 19.5 | 5751 | 4530 | inactive |
| Acp98AB (retired record) (GeneID 44933) | 1 | 3.35 | 24.4 | 6898 | 5095 | inactive |
| slmo + CG34179 | 1 | 4.56 | 4.7 | 6080 | 6361 | inactive |
| CG9517 (retired record) (GeneID 32417) | 1 | 1.21 | 1.81 | 6292 | 6642 | inactive |
| CG9517 (retired record) (GeneID 32417) | 2 | 1.15 | 3.16 | 6348 | 6844 | inactive |
| CG9517 (retired record) (GeneID 32417) | 3 | 4.59 | 1.91 | 6661 | 6821 | inactive |
| papi (GeneID 33401) | 1 | 6.65 | 15.9 | 5921 | 4962 | inactive |
| CG7203 (GeneID 34055) | 1 | 6.72 | 7.56 | 6338 | 6428 | inactive |
| CG7203 (GeneID 34055) | 2 | 2.82 | 4.47 | 6674 | 6198 | inactive |
| CG3815 (GeneID 31571) | 1 | 1.35 | 1.06 | 5462 | 6109 | inactive |
| CG3815 (GeneID 31571) | 2 | 2.78 | 1.94 | 6079 | 6029 | inactive |
| CG2924 (GeneID 31214) | 1 | 5.39 | 2.92 | 6194 | 6036 | inactive |
| CG2924 (GeneID 31214) | 2 | 13.3 | 5.2 | 5889 | 1905 | inactive |
| Srpk79D (GeneID 40461) | 1 | 4.5 | 10.5 | 6911 | 6159 | inactive |
| Srpk79D (GeneID 40461) | 2 | 2.65 | 10.5 | 6346 | 6688 | inactive |
| Srpk79D (GeneID 40461) | 3 | – | 11.4 | – | 3157 | inactive |
| CG13855 (GeneID 42629) | 1 | 12.9 | 13.1 | 5472 | 5734 | inactive |
| CG13855 (GeneID 42629) | 2 | 7.05 | 4.34 | 6255 | 5897 | inactive |
| mthl4 (GeneID 36960) | 1 | 26 | 11 | 3955 | 3552 | inactive |
| CG11825 (GeneID 36099) | 1 | 30.1 | 12.2 | 5734 | 3177 | inactive |
| CG11825 (GeneID 36099) | 2 | 13.7 | 21.4 | 6917 | 6326 | inactive |
| Pop1 (GeneID 31475) | 1 | 31.2 | 4.08 | 571 | 6647 | inactive |
| Liprin-beta (GeneID 39524) | 1 | 1.67 | 1.35 | 6350 | 6668 | inactive |
| Liprin-beta (GeneID 39524) | 2 | 1.12 | 8.21 | 6849 | 6882 | inactive |
| Liprin-beta (GeneID 39524) | 3 | 1.95 | – | 872 | 438 | inactive |
| CG13999 (GeneID 33826) | 1 | 5.22 | 6.89 | 1399 | 2845 | inactive |
| CG13999 (GeneID 33826) | 2 | – | 7.16 | 368 | 5379 | inactive |
| CG10359 (GeneID 38434) | 1 | 10.4 | 1.55 | 3834 | 647 | inactive |
